Pooled drug test results. Numbers come from NIAID ChemDB, via PubChem.

All rows: host cell toxicity; endpoint: CC50

Two numbers with a dash give a range or band.

structure	conditions	read by	cells	value
CC(C)[C@H](NC(=O)OCc1ccccc1)C(=O)N[C@@H](Cc1ccccc1)[C@H](O)[C@H](Cc1ccccc1)NC(=O)[C@@H](NC(=O)OCc1ccccn1)C(C)C		trypan blue	H9	25 µM
CCOC(=O)c1ccc(N2N=C3C(=CC(=O)c4ccccc43)SCC2=O)cc1			VERO	10 µg/mL
CC(C)CN(C[C@@H](O)[C@H](Cc1cc(F)cc(F)c1)NC(=O)O[C@H]1CCO[C@H]2OCC[C@H]21)S(=O)(=O)c1ccc2nc(NC(C)C)sc2c1		MTT	TM-31	>100 µM
Cc1ccccc1C(=O)Nc1cccc(Cn2nc(C(N)=O)c3ccccc32)c1		MTT	Huh7.5.1	10.31 µM
CC(C)(C)OC(=O)N[C@@H](Cc1ccccc1)[C@H](O)[C@H](O)[C@H](Cc1ccccc1)NC(=O)OC(C)(C)C		trypan blue	H9	25 µM
CCC(C)C(N)C(=O)O[C@H]1C[C@H](n2cc(/C=C/Br)c(=O)[nH]c2=O)O[C@@H]1COP1(=O)OCc2cccc(C)c2O1			HELF	58.5 µg/mL
O=C1c2c(O)cc(O)cc2O[C@H](c2ccc(O)cc2)[C@H]1c1c(O)cc(O)c2c(=O)cc(-c3ccc(O)c(O)c3)oc12		sulforhodamine / absorbance	P-388	31.87 µM
O=C1N[C@@H]([C@@H](O)CO)[C@H](O)[C@H]1O			Karpas 45 cells	>30 µg/mL
CC(C)=CC[C@H]1C[C@@]2(C[C@H]3CCC(C)(C)C=C3C)C(=O)[C@](C(=O)c3ccccc3)(C(=O)C3=C2OC(C)(C)C=C3)C1(C)C		sulforhodamine / absorbance	HT-29	>50 µM
O=C[C@@H](O)[C@H](O)[C@H](O)[C@H](O)CO			HeLa	>200 µg/mL
CCN(CC)CCNc1cc2c(c3c(=O)c4ccccc4sc13)CCCC2			VERO	4.2 µg/mL
CC(=O)c1cc(O)c(O)c(=O)cc1C	3 d	MTS	HepG2	23.5 µM
O=C1c2ccccc2C(=O)c2sc(Nc3cc(Cl)ccc3Cl)nc21			VERO	4 µg/mL
OC[C@@H](O)[C@H]1NC[C@H](O)[C@H]1O			Karpas 45 cells	>160 µg/mL
Nc1ccn(C[C@H]2COP(=O)(O)CO2)c(=O)n1		MTT	CBMC	157 µM
Cc1ccnc2c1ccc1c(C)ccnc12			VERO	<2.06 µg/mL
NC(=O)c1ncn([C@@H]2O[C@H](CO)[C@@H](O)[C@H]2O)n1			Panc-1	5–4500 µM
O=C(c1ccc(Br)cc1)c1cnc2nc(-c3ccccc3)c(-c3ccccc3)nn12			VERO	16 µg/mL
NC(=O)c1nn(Cc2ccccc2NC(=O)C2CC2)c2ccccc12		MTT	Huh7.5.1	>10 µM
CCN(CC)c1ccc2nc3ccc(N(CC)CC)cc3[n+](-c3ccccc3)c2c1.[Cl-]			VERO	0.55 µg/mL
CC(C)(C)C(=O)OCOP(=O)(COCCn1cnc2c(N)ncnc21)OCOC(=O)C(C)(C)C		MTT	CBMC	0.3 µM
O=C1c2c(O)cc(O)cc2O[C@@H](c2ccc(O)cc2)[C@@H]1c1c(O)cc(O)c2c(=O)cc(-c3ccc(O)c(O)c3)oc12		sulforhodamine / absorbance	P-388	20.47 µM
NC(=O)c1nn(Cc2cccc(NC(=O)c3ccccc3)c2)c2ccccc12		MTT	Huh7.5.1	>10 µM
O=C(O)[C@H]1NC[C@@H](O)[C@@H]1O			Karpas 45 cells	>150 µg/mL
NC12CC3CC(CC(C3)C1)C2			161-Br	40–1000 µM
O=c1[nH]c(=O)n([C@H]2C[C@H](O)[C@@H](CO)O2)cc1I		MTT	CBMC	178 µM
CCCCc1ccc(-n2c3nc(=O)n(C)c(=O)c-3nc3ccccc32)cc1			VERO	1.8 µg/mL
Nc1ncnc2c1ncn2CCOCP(=O)(O)O			P3HR-1	27 µg/mL
CC(C)=CC[C@H]1C[C@]2(C[C@H]3CCC(C)(C)C=C3C)C(=O)C3=C(OC(C)(C)CC3)[C@@](C(=O)c3ccccc3)(C2=O)C1(C)C		XTT / absorbance	1A2	23.45 µM
CC(C)[C@H](NC(=O)OCc1cccnc1)C(=O)N[C@@H](Cc1ccccc1)[C@@H](O)[C@H](O)[C@H](Cc1ccccc1)NC(=O)[C@@H](NC(=O)OCc1cccnc1)C(C)C		trypan blue	H9	>180 µM
C[S@@](=O)CCCCN=C=S		WST	TW01	11.55 µM
CCN1C[C@H](O)[C@@H](O)[C@H](O)[C@H]1CO			Karpas 45 cells	>500 µg/mL
CC(C)[C@H](NC(=O)CCc1ccccn1)C(=O)N[C@@H](Cc1ccccc1)[C@@H](O)[C@H](O)[C@H](Cc1ccccc1)NC(=O)[C@@H](NC(=O)CCc1ccccn1)C(C)C		trypan blue	H9	>100 µM
O=C(N/N=C/c1cccs1)c1ccncc1			VERO	>62.5 µg/mL
C[C@H]1CCC/C=C/[C@@H]2C[C@H](O)C[C@H]2[C@@H](O)/C=C/C(=O)O1			HeLa	<10 µg/mL
O=C1CC(SC(=S)N2CCOCC2)C(=O)N1			VERO	0.6 µg/mL
CC(C)CN(C[C@@H](O)[C@H](Cc1ccccc1)NC(=O)O[C@H]1CCOC1)S(=O)(=O)c1ccc(N)cc1		MTT	KG-1-C	>100 µM
Cc1cccc2c1OP(=O)(OC[C@H]1O[C@@H](n3cc(/C=C/Br)c(=O)[nH]c3=O)C[C@@H]1OC(=O)[C@@H](N)CC(C)C)OC2			HELF	>128 µg/mL
NC(=O)c1nn(Cc2cccc(NC(=O)c3cccc([N+](=O)[O-])c3)c2)c2ccccc12		MTT	Huh7.5.1	>10 µM
OC[C@H](O)[C@@H]1[C@@H](O)[C@@H](O)CN1Cc1ccccc1			Karpas 45 cells	>100 µg/mL
O=C1N(c2nncs2)CCN1[N+](=O)[O-]			VERO	86.4 µg/mL
CC(C)[C@H](NC(=O)OCc1ccccn1)C(=O)NC(Cc1ccccc1)C(O)C(F)(F)C(Cc1ccccc1)NC(=O)[C@@H](NC(=O)OCc1ccccn1)C(C)C		trypan blue	H9	25 µM
CN1CCN(C(=S)S)CC1			VERO	0.61 µg/mL
OC[C@@H]1NC[C@H](O)[C@H](O)[C@H]1O			Karpas 45 cells	>500 µg/mL
C/C(=C\C=C\C(C)[C@H]1CC[C@@]2(C)[C@@H]3CC[C@H]4C(C)(C)C(=O)CC[C@]4(C)C3=CC[C@]12C)C(=O)O		sulforhodamine / absorbance	KB	>50 µM
O=C(Nc1ccc(C2=NCCN2)cc1)c1ccc(C(=O)Nc2ccc(C3=NCCN3)cc2)c(Br)c1			VERO	>100 µg/mL
CC(C)[C@H](NC(=O)OCc1ccccc1)C(=O)N[C@@H](Cc1ccccc1)[C@H](O)[C@H](O)[C@H](Cc1ccccc1)NC(=O)OC(C)(C)C		trypan blue	H9	30 µM
CN1C[C@H](O)[C@@H](O)[C@@H]1CO			Karpas 45 cells	>100 µg/mL
CCOC(=O)n1c(=O)nc2c3c(ncn21)Oc1c(c(-c2ccccc2)nn1-c1ccccc1)C3c1ccc(Cl)cc1			VERO	1.56 µg/mL
Nc1ncnc2c1ncn2[C@@H]1O[C@H](CC(N)CC[C@H](N)C(=O)O)[C@@H](O)[C@H]1O			HeLa	100 µg/mL
Nc1ncnc2c1ncn2[C@@H]1O[C@H](CO)[C@@H](O)[C@@H]1O		MTT	CBMC	104 µM
CO[C@H]1/C=C/O[C@@]2(C)Oc3c(C)c(O)c4c(c3C2=O)C(=O)C=C(NC(=O)/C(C)=C\C=C\[C@H](C)[C@H](OC=O)[C@@H](C)[C@@H](O)[C@@H](C)[C@H](OC(C)=O)[C@@H]1C)C4=O			VERO	4.02 µg/mL
Cc1cccc2c1OP(=O)(OC[C@H]1O[C@@H](n3cc(/C=C/Br)c(=O)[nH]c3=O)C[C@@H]1OC(=O)[C@H]1CCCN1)OC2			HELF	>128 µg/mL
Cn1cc(NC(=O)c2cc(NC(=O)CCCCCCCCCC(=O)Nc3cc(C(=O)Nc4cc(C(=O)NCCC(N)=[NH2+])n(C)c4)n(C)c3)cn2C)cc1C(=O)NCCC(N)=[NH2+]			VERO	37 µg/mL
C[C@H](N)C(=O)O[C@H]1C[C@H](n2cc(/C=C/Br)c(=O)[nH]c2=O)O[C@@H]1COP1(=O)OCc2ccccc2O1			HELF	>128 µg/mL
NC(=NCCC[C@H](N)C(=O)O)N[C@@H](CC(=O)O)C(=O)O			HeLa	>200 µg/mL
NC(=O)c1nn(Cc2cccc(NC(=O)c3ccc(F)cc3)c2)c2ccccc12		MTT	Huh7.5.1	20.67 µM
Cc1nc2ccc(NCCN(C)C)c3c(=O)c4ccccc4n1c23			VERO	1.72 µg/mL
Nc1ncc2c(ncn2COC(CO)CO)n1		MTT	HSB-2	0.62 µM
O=c1[nH]c(=O)n([C@H]2C[C@H](O)[C@@H](CO)O2)cc1/C=C/Br			P3HR-1	75 µg/mL
O=c1[nH]c(=O)n([C@H]2C[C@H](O)[C@@H](CO)O2)cc1/C=C/Br		MTT	CBMC	201 µM
CC(=O)O[C@@H]1OC(=O)[C@](C)(C(C)=O)[C@@H]1C			HeLa	10–20 µg/mL
O=C(O)CP(=O)(O)O		MTT	CBMC	325 µM
CC(C)C(=O)O[C@H]1C[C@H](n2cc(/C=C/Br)c(=O)[nH]c2=O)O[C@@H]1COP1(=O)OCc2ccccc2O1			HELF	72.5 µg/mL
COC(=O)OC1CCC2(C)C(=CCC3C2CCC2(C)C(C(C)CCCC(C)C)CCC32)C1			HeLa	>200 µg/mL
COc1ccc(-n2sc3ncc(-c4ccccc4)cc3c2=O)cc1			VERO	>10 µg/mL
C[C@@H]1C[C@@H]([C@H](O)CC2CC(=O)NC(=O)C2)C(=O)[C@@H](C)C1			HeLa	100 µg/mL
Cc1c2ccncc2c(C)c2c1[nH]c1ccc(Cl)cc12			VERO	0.25 µg/mL
OC[C@H](O)[C@H]1[C@H](O)[C@H](O)CN1Cc1ccccc1			Karpas 45 cells	>100 µg/mL
COc1ccccc1C(=O)Nc1cccc(Cn2nc(C(N)=O)c3ccccc32)c1		MTT	Huh7.5.1	>10 µM
Cn1cc(NC(=O)c2cc(NC(=O)CCCCCCCC(=O)Nc3cc(C(=O)Nc4cc(C(=O)NCCC(N)=[NH2+])n(C)c4)n(C)c3)cn2C)cc1C(=O)NCCC(N)=[NH2+]			VERO	>62.5 µg/mL
COc1cc(-c2ccccc2)c(OC)c(OC)c1O		sulforhodamine / absorbance	ASK (Atlantic salmon kidney)	>50 µM
CC[CH2][Sn]([Cl])([Br])[CH2]CC.c1cnc2c(c1)ccc1cccnc12			VERO	0.14 µg/mL
NC(=O)c1nn(Cc2ccccc2N)c2ccccc12		MTT	Huh7.5.1	>10 µM

Lines come from different laboratories, so protocols vary. CCn: concentration that lowers growth or viability of the cells by n%. Blank or dashed fields: not listed here.